Experimental data from patent US20140235836A1, “Immunologic Constructs and Methods” (published 2014).

Molecular target: A/Aichi/2/1968 virus (hemagglutinin) (influenza virus A/Aichi/2/1968 (H3N2))

Question: Which GMT (HAI titers) does the source give for “sera of mice given F147 formulation buffer (Aichi series) (polyclonal serum or antibody)” here?
Answer: 2.5 GMT
